According to patent publication US20060128614A1, “Antimicrobial peptides with reduced hemolysis and methods of their use” (priority 2002, published 2006):
Non-standard residues stand in square brackets, D forms with d. Residues, ends and D or L forms follow the SMILES beside them. 1Nal = N[C@@H](Cc1cccc2ccccc12)C(=O)O; 2Nal = N[C@@H](Cc1ccc2ccccc2c1)C(=O)O

Legend:
[1] = Secondary structure by CD spectroscopy, first experiment; format: physicochemical; details: for Peptide conformation in phosphate buffer: 30 μM peptide
[2] = Nal fluorescence emission maximum with PE/PG vesicles; format: binding; details: PE/PG (7:3, w/w) vesicles, lipid/peptide molar ratio 1000:1
[3] = Nal fluorescence emission maximum with PC/cholesterol vesicles; format: binding; details: PC/cholesterol (10:1, w/w) vesicles, lipid/peptide molar ratio 1000:1
[4] = Fluorescence emission spectra in phosphate buffer with or without SDS; format: binding; details: 1.5 μM peptide
[5] = Acrylamide fluorescence quenching (Stern-Volmer); format: binding; details: acrylamide quencher
[6] = CD spectra of Pac-625 in water, micelles and TFE; format: physicochemical; details: 100 μM peptide, pH 4.5, 25° C.
[7] = 10 mM sodium phosphate buffer pH 7.2

Structure (SMILES)	Peptide conformation in phosphate buffer [1, 7]	Peptide conformation in SDS [1]	Nal emission maximum, PE/PG [2] [nm]	Nal emission maximum, PC/cholesterol [3] [nm]	also measured
CC[C@H](C)[C@@H]1NC(=O)[C@H](Cc2ccc3ccccc3c2)NC(=O)[C@H](CCCNC(=N)N)NC(=O)[C@H](CCCNC(=N)N)NC(=O)[C@H](Cc2ccc3ccccc3c2)NC(=O)[C@H](CCCCN)NC1=O [Pac-401 C, K (2-Nal) R R (2-Nal) I] (cyclo(K[2Nal]RR[2Nal]I); ring closure inferred)	unordered	unordered			
CC[C@H](C)[C@H](NC(=O)[C@H](Cc1ccc2ccccc2c1)NC(=O)[C@H](CCCNC(=N)N)NC(=O)[C@@H](NC(=O)[C@H](Cc1ccc2ccccc2c1)NC(=O)[C@H](CCCNC(=N)N)NC(=O)[C@H](CCCNC(=N)N)NC(=O)[C@H](Cc1ccc2ccccc2c1)NC(=O)[C@H](CCCCN)NC(C)=O)C(C)C)C(N)=O [Pac-625 L, K (2-Nal) R R (2-Nal) V R (2-Nal) I] (Ac-K[2Nal]RR[2Nal]VR[2Nal]I-NH2)		slightly structured	334 ± 2	338 ± 2	fluorescence emission maximum ([4]; 20 mM sodium phosphate buffer pH 4.5, without SDS): 356.5 nm; blue shift of fluorescence spectrum on adding SDS ([4]; 25 mM SDS, pH 4.5): 5.0 nm; effective Stern-Volmer constant KSV (eff) ([5]; absence of SDS micelles): 20.06 ± 0.023 M⁻¹; effective Stern-Volmer constant KSV (eff) ([5]; presence of SDS micelles): 14.97 ± 0.023 M⁻¹; Peptide conformation in phosphate buffer ([1]; 10 mM sodium phosphate buffer pH 7.2, listed as Pac 625 L): unordered; Peptide conformation in phosphate buffer ([1]; 10 mM sodium phosphate buffer pH 7.2, listed as Pac-625): unordered structure; conformation by CD in aqueous solution ([6]; aqueous solution): random coil conformation; conformation by CD with micelles of SDS, DPC, LPC12 or TFE ([6]; 10 mM SDS, 10 mM DPC, 1 mM LPC12, 50% TFE): more ordered structure
CC[C@H](C)[C@@H]1NC(=O)[C@H](CCCCN)NC(=O)[C@H](Cc2ccc3ccccc3c2)NC(=O)[C@H](CCCNC(=N)N)NC(=O)[C@H](CCCNC(=N)N)NC(=O)[C@H](Cc2ccc3ccccc3c2)NC(=O)[C@H](C(C)C)NC(=O)[C@H](CCCNC(=N)N)NC(=O)[C@H](Cc2ccc3ccccc3c2)NC1=O [Pac-626 C, I (2-Nal) R V (2-Nal) R R (2-Nal) K] (cyclo(I[2Nal]RV[2Nal]RR[2Nal]K); ring closure inferred)	unordered	unordered			
CC[C@H](C)[C@H](NC(=O)[C@H](Cc1cccc2ccccc12)NC(=O)[C@H](CCCNC(=N)N)NC(=O)[C@@H](NC(=O)[C@H](Cc1cccc2ccccc12)NC(=O)[C@H](CCCNC(=N)N)NC(=O)[C@H](CCCNC(=N)N)NC(=O)[C@H](Cc1cccc2ccccc12)NC(=O)[C@H](CCCCN)NC(C)=O)C(C)C)C(N)=O [Pac-627 L, K (1-Nal) R R (1-Nal) V R (1-Nal) I] (Ac-K[1Nal]RR[1Nal]VR[1Nal]I-NH2)			334 ± 2	339 ± 2	
CC[C@H](C)[C@@H]1NC(=O)[C@H](Cc2ccc3ccccc3c2)NC(=O)[C@H](CCCCN)NC(=O)[C@H](CCCNC(=N)N)NC(=O)[C@H](Cc2ccc3ccccc3c2)NC(=O)[C@H](CCCCN)NC1=O [Pac-403 C, K (2-Nal) I K (2-Nal) R] (cyclo(K[2Nal]IK[2Nal]R); ring closure inferred)	unordered	unordered			
CC[C@H](C)[C@@H]1NC(=O)[C@H](Cc2ccc3ccccc3c2)NC(=O)[C@H](CCCNC(=N)N)NC(=O)[C@H](C(C)C)NC(=O)[C@H](Cc2ccc3ccccc3c2)NC(=O)[C@H](CCCNC(=N)N)NC(=O)[C@H](CCCNC(=N)N)NC(=O)[C@H](Cc2ccc3ccccc3c2)NC(=O)[C@H](CCCCN)NC1=O [Pac-625 C, K (2-Nal) R R (2-Nal) V R (2-Nal) I] (cyclo(K[2Nal]RR[2Nal]VR[2Nal]I); ring closure inferred)	unordered	unordered			
CC[C@H](C)[C@H](NC(C)=O)C(=O)N[C@@H](Cc1ccc2ccccc2c1)C(=O)N[C@@H](CCCNC(=N)N)C(=O)N[C@H](C(=O)N[C@@H](Cc1ccc2ccccc2c1)C(=O)N[C@@H](CCCNC(=N)N)C(=O)N[C@@H](CCCNC(=N)N)C(=O)N[C@@H](Cc1ccc2ccccc2c1)C(=O)N[C@@H](CCCCN)C(N)=O)C(C)C [Pac-626 L, I (2-Nal) R V (2-Nal) R R (2-Nal) K] (Ac-I[2Nal]RV[2Nal]RR[2Nal]K-NH2)		slightly structured	334 ± 2	339 ± 2	Peptide conformation in phosphate buffer ([1]; 10 mM sodium phosphate buffer pH 7.2, listed as Pac 626 L): unordered; Peptide conformation in phosphate buffer ([1]; 10 mM sodium phosphate buffer pH 7.2, listed as Pac-626): unordered structure
